Measured values published in publication PMC12800083, “Structural and catalytic diversity of coronavirus proofreading exoribonuclease” (2025).

Molecular target: MERS-CoV nsp10-nsp14 E191A mutant complex (MERS-CoV)
Experiment: cryo-EM structure

“MERS-CoV nsp10-nsp14 E191A mutant complex” gave a stoichiometry N of 2.
